The record followed here is patent publication US20060263870A1, “Hydrocarbon processing method and hydrocarbon processing system” (NIHON UNIVERSITY, priority 2005, published 2006).

This series concerns Rhodococcus rhodochrous S-2. The experiment in a line: Treatment of various hydrocarbons: growth and localization of S-2 in organic solvent/IB medium bilayer culture. The following applies: hydrocarbon 5% (v/v) in IB medium, 28° C., 110 rpm, third day of culturing. It counts as cell-based. The procedure:
IB liquid medium was prepared as shown below.
As n-alkanes, n-hexane (C6), n-octane (C8), n-nonane (C9), n-decane (C10), n-undecane (C11), n-dodecane (C12), n-tridecane (C13), n-tetradecane (C14), n-pentadecane (C15), n-hexadecane (C16), n-heptadecane (C17), and n-octadecane (C18) were used.
As test strains, Rhodococcus erythropolis PR-4 and Rhodococcus rhodochrous S-2 were used.
On the third day after the start of culturing, the growth status of the test bacteria and sites where the test bacteria had localized were observed. When the test bacteria were present in the organic solvent, they were labeled “inside” and when they were present on the surface of the organic solvent, they were labeled “surface.” The results are shown in Table 1.
As for `CCCCCCCCCCCCCCCC` [n-hexadecane], the S-2 localization result is recorded as “surface”. With `CC(C)CCCC(C)CCCC(C)CCCCC(C)CCCC(C)CCCC(C)C` (stereo not drawn) [n-squalane, squalane], the S-2 localization entry is given as “surface”.

Turning to `CCCCCCCCCCCCCC` [n-tetradecane], the S-2 localization result is “surface”.
